Pooled drug test results. Numbers come from NIAID ChemDB, via PubChem.

Common to all: tests in culture; organism: Enterococcus faecium

An empty or dashed field is not shown.

SMILES	strain or isolate	read-out	result
CN(C)c1cc(CNC2CCCC2)c(O)c2c1C[C@H]1C[C@H]3[C@H](N(C)C)C(=O)C(C(N)=O)=C(O)[C@@]3(O)C(=O)C1=C2O	494 (vancomycin-resistant)	MIC	0.5 µg/mL
CN(C)c1cc(NC(=O)CNC(C)(C)C)c(O)c2c1C[C@H]1C[C@H]3[C@H](N(C)C)C(=O)C(C(N)=O)=C(O)[C@@]3(O)C(=O)C1=C2O	40 strains (vancomycin-resistant)	MIC50	≤0.06 µg/mL
CC(=O)NC[C@H]1CN(c2ccc(NC(=O)c3ccc([N+](=O)[O-])s3)c(F)c2)C(=O)O1	UC12712 (vancomycin-resistant)	MIC	1 µg/mL
CN(C)[C@@H]1C(=O)C(C(N)=O)=C(O)[C@@]2(O)C(=O)C3=C(O)c4c(O)ccc(-c5ccc(F)cc5)c4C[C@H]3C[C@@H]12	494 (vancomycin-resistant)	MIC	0.5 µg/mL
CC(=O)NC[C@H]1CN(c2ccc(OC3CCN(C(=O)COCc4ccccc4)CC3)c(F)c2)C(=O)O1	OC3312 vancomycin-resistant	MIC	4 µg/mL
CC(=O)NC[C@H]1CN(c2ccc(SCc3ncon3)c(F)c2)C(=O)O1	UC12712 (vancomycin-resistant)	MIC	8 µg/mL
CCNc1c(F)cc2c(=O)c(C(=O)O)cn(-c3cc(N)c(F)cc3F)c2c1C	W1418	MIC	64 µg/mL
CC(=O)NC[C@H]1CN(c2ccc3c(c2)OCc2nccn2-3)C(=O)O1	L4001	MIC	0.25 µg/mL
C=CCCC(=O)NC[C@H]1CN(c2ccc(N3CCOCC3)c(F)c2)C(=O)O1	UC12712 (vancomycin-resistant)	MIC	16 µg/mL
Cc1c(NCCO)c(F)cc2c(=O)c(C(=O)O)cn(-c3cc(N)c(F)cc3F)c12	W1140	MIC	4 µg/mL
CC[C@H]1OC(=O)[C@H](C)C(=O)[C@H](C)[C@@H](O[C@@H]2O[C@H](C)C[C@H](N(C)C)[C@H]2O)[C@](C)(OC)C[C@@H](C)C(=O)[C@H](C)[C@H]2N(CCCCn3cnc(-c4cccnc4)c3)C(=O)O[C@]12C	-	MIC90	2–4 µg/mL
CC(=O)NC[C@H]1CN(c2ccc(Sc3ncc([N+](=O)[O-])s3)c(F)c2)C(=O)O1	UC12712 (vancomycin-resistant)	MIC	2 µg/mL
CC(=O)NC[C@H]1CN(c2ccc(C(=O)Nc3ncc[nH]3)c(F)c2)C(=O)O1	UC12712 (vancomycin-resistant)	MIC	4 µg/mL
O=C(Nc1cccc(C2=NCCN2)c1)Nc1cccc(C(F)(F)F)c1	EF12 (vancomycin-resistant)	MIC	106 µM
Cc1c(N)c(F)cc2c(=O)c(C(=O)O)cn(-c3cc(N)c(F)cc3F)c12	W1140	MIC	4 µg/mL
O=C(/C=C/c1ccncc1)NC[C@H]1CN(c2ccc(N3CCOCC3)c(F)c2)C(=O)O1	UC12712 (vancomycin-resistant)	MIC	16 µg/mL
CC(=O)NC[C@H]1CN(c2ccc(NC(=O)C3=CSNN3)c(F)c2)C(=O)O1	UC12712 (vancomycin-resistant)	MIC	4 µg/mL
CC(=O)NC[C@H]1CN(c2ccc(C(=O)NN)c(F)c2)C(=O)O1	UC12712 (vancomycin-resistant)	MIC	8 µg/mL
COCCSc1ccc(N2C[C@H](CNC(C)=O)OC2=O)cc1F	UC12712 (vancomycin-resistant)	MIC	16 µg/mL
CN(C)c1cc(CNCc2ccccc2)c(O)c2c1C[C@H]1C[C@H]3[C@H](N(C)C)C(=O)C(C(N)=O)=C(O)[C@@]3(O)C(=O)C1=C2O	494 (vancomycin-resistant)	MIC	1 µg/mL
CC(=O)NC[C@H]1CN(c2ccc(NC(=O)c3cc4ccccc4o3)c(F)c2)C(=O)O1	UC12712 (vancomycin-resistant)	MIC	16 µg/mL
O=C(CCc1ccccc1)NC[C@H]1CN(c2ccc(N3CCOCC3)c(F)c2)C(=O)O1	UC12712 (vancomycin-resistant)	MIC	16 µg/mL
O=C(CC(=O)Nc1cc(C(F)(F)F)cc(C(F)(F)F)c1)Nc1cccc(C2=NCCN2)c1	EF12 (vancomycin-resistant)	MIC	212 µM
CN(C)c1cc(CNCC(C)(C)C)c(O)c2c1C[C@H]1C[C@H]3[C@H](N(C)C)C(=O)C(C(N)=O)=C(O)[C@@]3(O)C(=O)C1=C2O	494 (vancomycin-resistant)	MIC	0.5 µg/mL
CC(=O)NC[C@H]1CN(c2ccc(N3C[C@@H]4C(N)[C@@H]4C3)c(F)c2)C(=O)O1	UC12712 (vancomycin-resistant)	MIC	2 µg/mL
O=C(/C=C/c1ccc(/C=N/O)cc1)NC[C@H]1CN(c2ccc(N3CCOCC3)c(F)c2)C(=O)O1	UC12712 (vancomycin-resistant)	MIC	4 µg/mL
CO/N=C/c1ccc(/C=C/C(=O)NC[C@H]2CN(c3ccc(C(N)=O)c(F)c3)C(=O)O2)cc1	UC12712 (vancomycin-resistant)	MIC	2 µg/mL
O=C(CC(=O)Nc1ccc(F)cc1)Nc1ccc(F)cc1	EF12 (vancomycin-resistant)	MIC	>300 µM
CSc1ccc(N2C[C@H](CNC(C)=O)OC2=O)cc1F	UC12712 (vancomycin-resistant)	MIC	8 µg/mL
C[C@H]1COc2c(N3CCN(C)CC3)c(F)cc3c(=O)c(C(=O)O)cn1c23	-	MIC90	2–50 µg/mL
CC(=O)NC[C@H]1CN(c2ccc(NC(=O)c3ccco3)c(F)c2)C(=O)O1	UC12712 (vancomycin-resistant)	MIC	16 µg/mL
CO/N=C/c1ccc(/C=C/C(=O)NC[C@H]2CN(c3ccc(N4CCOCC4)c(F)c3)C(=O)O2)cc1	UC12712 (vancomycin-resistant)	MIC	8 µg/mL
CNC(=O)c1ccc(N2C[C@H](CNC(C)=O)OC2=O)cc1F	UC12712 (vancomycin-resistant)	MIC	8 µg/mL
CC(=O)NC[C@H]1CN(c2ccc(NC(=O)c3ccccn3)c(F)c2)C(=O)O1	UC12712 (vancomycin-resistant)	MIC	16 µg/mL
O=C(NC[C@H]1CN(c2ccc(C3CCS(=O)(=O)CC3)c(F)c2)C(=O)O1)Nc1ccc(Cl)c(Cl)c1	UC12712 (vancomycin-resistant)	MIC	>64 µg/mL

Repeating the final 4 entries:

SMILES | strain or isolate | read-out | result
CO/N=C/c1ccc(/C=C/C(=O)NC[C@H]2CN(c3ccc(N4CCOCC4)c(F)c3)C(=O)O2)cc1 | UC12712 (vancomycin-resistant) | MIC | 8 µg/mL
CNC(=O)c1ccc(N2C[C@H](CNC(C)=O)OC2=O)cc1F | UC12712 (vancomycin-resistant) | MIC | 8 µg/mL
CC(=O)NC[C@H]1CN(c2ccc(NC(=O)c3ccccn3)c(F)c2)C(=O)O1 | UC12712 (vancomycin-resistant) | MIC | 16 µg/mL
O=C(NC[C@H]1CN(c2ccc(C3CCS(=O)(=O)CC3)c(F)c2)C(=O)O1)Nc1ccc(Cl)c(Cl)c1 | UC12712 (vancomycin-resistant) | MIC | >64 µg/mL

Conditions beyond the fields shown may differ between rows. MIC50, MIC90 and the like: level of inhibition, or share of isolates inhibited. Two numbers with a dash give a range or band.